Measured values published in ChEMBL document CHEMBL4480367 (Medchemcomm, 2019).

Tests used:
Influenza A virus = test: Antiviral activity against amantadine-sensitive Influenza A virus (A/chicken/Hubei/327/2004(H5N1)) infected in MDCK cells after 40 mins by crystal violet staining-based plaque reduction assay
[1] = Selectivity index, ratio of CC50 for MDCK cells to EC50 for amantadine-sensitive Influenza A virus (A/chicken/Hubei/327/2004(H5N1)); conditions: dog

Compound | EC50 (Influenza A virus) [µM] | Ratio CC50/EC50 [1]
CCOC(=O)C1=C[C@@H](OC(CC)CC)[C@H](NC(C)=O)[C@@H](N)C1.O=P(O)(O)O [OSELTAMIVIR PHOSPHATE] | 0.39 | –
O=S(=O)(NCc1cc2ccccc2s1)c1ccc(Br)cc1 | 40.7 | > 4.3
O=[N+]([O-])c1ccc(S(=O)(=O)NCc2cc3ccccc3s2)cc1 | 50 | > 3.8
O=S(=O)(NCc1cc2ccccc2s1)c1ccccc1F | > 100 | –
O=[N+]([O-])c1ccc(S(=O)(=O)NCc2csc3ccccc23)cc1 | 1.38 | > 139
O=S(=O)(NCc1csc2ccccc12)c1ccc(F)cc1 | 3.42 | 28.8
O=S(=O)(NCc1cc2ccccc2s1)c1ccc(C(F)(F)F)cc1 | 44.8 | > 4
Cc1cc(CNS(=O)(=O)c2ccc(C#N)cc2)c(C)s1 | 0.62 | > 351
O=[N+]([O-])c1ccc(S(=O)(=O)NCc2ccc(Cl)s2)cc1 | 70 | 1.8
CC(=O)c1ccc(S(=O)(=O)NCc2csc3ccccc23)cc1 | 12 | > 16
Cc1cc(CNS(=O)(=O)c2ccc(Cl)cc2)c(C)s1 | 0.7 | 75.5
O=S(=O)(NCc1csc2ccccc12)c1cccc(F)c1 | > 100 | –
O=[N+]([O-])c1ccc(S(=O)(=O)NCc2ccoc2)cc1 | 47.2 | > 5
O=[N+]([O-])c1ccc(S(=O)(=O)NCc2cccs2)cc1 | 1.91 | 69.8
Cc1cc(CNS(=O)(=O)c2ccc(F)cc2)c(C)o1 | 8.08 | 17.1
Cc1cc(CNS(=O)(=O)c2ccc(C#N)cc2)c(C)o1 | 4.03 | 26.1
Cc1cc(CNS(=O)(=O)c2ccc(Br)cc2)c(C)o1 | 1.8 | 16.5
N#Cc1ccc(S(=O)(=O)NCc2csc3ccccc23)cc1 | 20.3 | 6

Compound | EC50 (Influenza A virus) [µM] | Ratio CC50/EC50 [1]
Cc1cc(CNS(=O)(=O)c2ccc([N+](=O)[O-])cc2)c(C)s1 | 1.29 | > 158
O=S(=O)(NCc1cc2ccccc2s1)c1ccc(Cl)cc1 | > 100 | –
O=S(=O)(NCc1cc2ccccc2s1)c1cccc(F)c1 | > 100 | –
O=[N+]([O-])c1ccc(S(=O)(=O)NCc2ccsc2)cc1 | 1.47 | 94.4
O=S(=O)(NCc1csc2ccccc12)c1ccc(Br)cc1 | 7.22 | 12.1
Cc1cc(CNS(=O)(=O)c2ccc([N+](=O)[O-])cc2)c(C)o1 | 1.06 | > 144
O=S(=O)(NCc1csc2ccccc12)c1ccc(Cl)cc1 | 1.98 | 35.1
O=S(=O)(NCc1csc2ccccc12)c1ccc(C(F)(F)F)cc1 | 38.6 | 2.5
N#Cc1ccc(S(=O)(=O)NCc2cc3ccccc3s2)cc1 | > 100 | –
Cc1ccc(S(=O)(=O)NCc2cc3ccccc3s2)cc1 | 42 | > 5
Cc1cc(CNS(=O)(=O)c2ccc(F)cc2)c(C)s1 | > 100 | –
Cc1cc(CNS(=O)(=O)c2ccc(Br)cc2)c(C)s1 | 0.47 | 120
O=S(=O)(NCc1cc2ccccc2s1)c1ccc(F)cc1 | > 100 | –
O=S(=O)(NCc1csc2ccccc12)c1ccccc1F | > 100 | –
NC12CC3CC(CC(C3)C1)C2 [AMANTADINE] | 0.43 | –
Cc1cc(CNS(=O)(=O)c2ccc(Cl)cc2)c(C)o1 | 1.37 | 40.7
Cc1ccc(S(=O)(=O)NCc2csc3ccccc23)cc1 | 10.5 | > 20
